Primary screen of a compound library

Mtb cholesterol medium: 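Growth of Mycobacterium tuberculosis over 4 days (cholesterol / DPPC medium with tyloxapol); the read-out is not stated. Compounds at 500 µM. Higher reads as more growth inhibition (inferred: compounds with an IC50 in retests scored well above the rest). Of about 18,000 compounds tested this way, about 900 (5%) reached 50% or more in at least one test.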
Mtb glucose medium: 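Whole-cell growth test on Mycobacterium tuberculosis, read after 3 days in glucose-containing 7H9 medium; the read-out is not stated. Tested at 500 µM. The record gives no direction; compounds that gave an IC50 in retests scored well above the rest, so higher reads as more growth inhibition. Size under these conditions: about 18,000 compounds, about 1,400 of them at 50% or above in at least one test.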

The filed quantity is “Percent Effect” (%).
How 0% and 100% were set is not recorded. Most values in the screen are low, and negative values occur.
This is part of a subset picked to be rich in strong results.
A dash means the value is not listed here; it may have been measured.

structure | Mtb cholesterol medium | Mtb glucose medium
NC1COC2(CCCCC2)C1 (stereo not given) | 5.514% | -
CN1CCN(S(=O)(=O)N2CCCC2)Cc2ccccc21 | 54.84% | 67.99%
CN1CCC(=O)CC1c1ccc(Br)cc1 (stereo not given) | - | -4.629%
O=C(CN1CCOCC1)NCc1ccc2sccc2c1 | - | 27.9%
CCn1ccc(NC(=O)NCC(C)C)n1 | 9.708% | -
Cc1cc(C(=O)N2C[C@@H](CO)[C@H](N(C)C)C2)nn1C | - | -1.796%
CCNC(=O)CNc1ccc2c(Cl)ccnc2c1F | 2.552% | -
CC(C)C(NS(=O)(=O)N1CCOCC1)c1ccccc1 (stereo not given) | - | 51.6%
Cc1ccc(C(=O)NCc2c[nH]nn2)c(F)c1 | - | 30.73%
CCCNC(=O)Nc1ccc(CN2CCOCC2)cc1 | - | 2.513%
Cc1nccn1CCCN1CCC2(CCO2)CC1 | - | -8.426%
CNCC(=O)NCCCc1nc2c(C)c(C)ccc2[nH]1 | - | 16.81%
Cn1cc(C(N)=O)c(NC(=O)c2ccc(Br)cc2)n1 | - | 58.4%
CNC(=O)C1CCN(C(=O)Nc2ccc(C)c(Cl)c2)C1 (stereo not given) | 7.716% | -
CCC1CN(CCn2cccn2)CCN1 (stereo not given) | 25.18% | -
O=C1CN(C(=O)COCC2CC2)c2ccccc2N1 | - | 28.19%
CNC(C)c1ccco1 (stereo not given) | - | 17.56%
COc1cc(OC)c(C(=O)c2nccn2C)c(OC)c1 | 3.988% | -
Cc1ccccc1N(C(=O)C(C)C)C1C=CS(=O)(=O)C1 (stereo not given) | - | 6.006%
CC(C)CN1CCC(O)CC1 | 4.291% | -
COCc1ccc(C(=O)N2CC[C@@H](N)[C@H](O)C2)s1 | 4.939% | -
CN(CCO)c1ccc(N)nc1 | - | -99.92%
O=C(CCS(=O)(=O)c1ccccn1)NC1CCCCC1 | - | 13.7%
Cc1ccc(S(=O)(=O)NCCN)cc1Cl | 18.27% | 49.45%
c1ccc(CN2CCN(CCC3OCCO3)CC2)nc1 | - | -0.7494%
COCCNCCNC(=O)c1cnn(C)c1 | - | -1.094%
CN(Cc1ccc(Br)cc1)C(=O)CSc1nc(N)n[nH]1 | 46.68% | 68.21%
CN(C)c1cc(CNC(=O)CCc2ccco2)ccn1 | - | 25.91%
c1ccc(CNC2CCCNCC2)cc1 (stereo not given) | 12.87% | -
CN(C(=O)c1cnn2cccnc12)C1CCCC1 | - | 0.4291%
CCC(C(=O)NCc1nnc(N)s1)n1cccn1 (stereo not given) | - | 3.052%
c1ccc2c(c1)CCOC21CCNCC1 | 8.087% | -
COC(=O)N1CCCC(NC(=O)N2CCC2)C1 (stereo not given) | 1.131% | -
CC1COCCN1Cc1cc(=O)n(C)c(=O)n1C (stereo not given) | - | -7.066%
NCC1CCC2(CCCCC2)O1 (stereo not given) | - | 11.64%
CCOC(=O)N1CCC(N2CCCCC(N)C2)CC1 (stereo not given) | - | 14.43%
CC(Nc1nc2ccccc2o1)C(=O)N1CCOCC1 (stereo not given) | 38.59% | 48.79%
O=c1c2ccccc2cnn1CN1CCCC1 | - | 63.89%
COc1ccc(CCC(=O)N(C)CC(N)=O)cc1Br | 17.25% | 28.71%
CC(=O)Nc1ccc(C2=NN=C(NC3CC3)SC2)cc1 | -2.725% | 38.78%
FC(F)(F)c1ccc(NCCNCc2cc[nH]n2)nc1 | 9.179% | 10.45%
CN(C(=O)CSc1nnc(N)s1)C1CCS(=O)(=O)C1 (stereo not given) | -8.718% | -6.141%
CC1(C#N)CCN(C(=O)CCc2cccc(O)c2)CC1 | - | 7.802%
COCCN1CCN(Cc2cccnc2C)CC1=O | -2.851% | -
CCN(CC)CCCC1CCN(S(N)(=O)=O)CC1 | - | 4.563%
CCN(CC)C(=O)CSc1nnnn1C1CCOCC1 | - | 15.66%
CN(C)C(=O)C(C)(N)C(F)(F)F (stereo not given) | - | 1.186%
CC(C)(O)CSc1nnc(NCc2ccco2)s1 | 80.02% | 68.61%
CCOc1ncccc1CNC(=O)c1ccnn1C | - | 7.781%
NCCCc1cccc(O)c1 | 15.81% | 9.178%
COc1ccc(CC(=O)N2CCOC(C)C2)cc1 (stereo not given) | - | -0.1157%
Cc1nn(CCNC(=O)C(C)NS(C)(=O)=O)c(C)c1C (stereo not given) | 1.308% | -
COCCOc1ccc(NC(=O)CSC(C)(C)C)cn1 | -191.9% | -154.2%
CN1CCC(Oc2ccc(C(N)=O)cn2)CC1 | - | 13.63%
CC(=O)Nc1ccc(C(=O)N(C)c2ccccc2)s1 | - | 47.57%
Cc1n[nH]cc1CNCC(O)COCC(C)C (stereo not given) | 37.24% | -
Clc1cnc(C2CCNCC2)nc1 | 3.935% | -
CS(=O)(=O)NCC1CCCN(c2ncc(Cl)cc2F)C1 (stereo not given) | 63.95% | 75.38%
CC(=O)N1CCN(CCNC(=O)Nc2nncs2)CC1 | - | -1.51%
CN(Cc1ccccc1)CC(O)CN1CCOCC1 (stereo not given) | -1.892% | -
CCN(CCO)C(=O)c1ccn(-c2ccccc2F)n1 | 13.07% | 26.88%
CC(C)NC(=O)Nc1cc(C(F)(F)F)c[nH]c1=O | 110.5% | -
CN(CCCN)C(=O)CCCn1ccnc1 | 3.751% | -
CNCCCNS(=O)(=O)c1cn(C(C)C)cn1 | - | -10.9%
C[C@@H]1CN(C(=O)c2cc(F)ccc2F)C[C@H]1CO | - | 9.75%
COCCNC(=O)c1cc2ccncc2[nH]1 | - | -9.245%
Cc1ccc(S(=O)(=O)NC(CN)C2CC2)c(F)c1 (stereo not given) | - | 51.57%
NC(=O)CSc1ccnc(SCC(N)=O)n1 | -0.594% | 3.945%
CCOC(=O)C(C)Nc1ccc2oc(=O)[nH]c2c1 (stereo not given) | 50.74% | -
CS(=O)(=O)N1CCC[C@H]1C(=O)NCCSc1cnn[nH]1 | 11.87% | -

Source: ChEMBL document CHEMBL3988442, “University of Dundee, Small-Polar-MMV Screening Library” (2021).